Pooled drug test results. Numbers come from NIAID ChemDB, via PubChem.

All rows: whole-cell or culture tests; agent: HIV-1; read-out: EC50

ECn: concentration that inhibits the pathogen or its effect by n%. Two numbers with a dash give a range or band. Conditions beyond the fields shown may differ between rows.

Nc1cccc(CN2C(=O)N(Cc3cccc(-c4ccn[nH]4)c3)[C@H](Cc3ccccc3)[C@H](O)[C@@H](O)[C@H]2Cc2ccccc2)c1 ; cells: MT-2 ; strain: RF ; value: <0.027 µM
CC(C)(C)C(=O)OCOP(=O)(COCCn1cnc2c(N)ncnc21)OCOC(=O)C(C)(C)C ; cells: MT-2 ; strain: IIIB ; value: 0.5 µM
CC(C)c1cc2c(c(O)c1O)[C@@]1(C(=O)O)CCCC(C)(C)C1CC2 ; changes: PR-L10I V11I T12E I15V L19I  R41K M46L L63P A71T V82A L90M ; cells: PBMC ; strain: clinical isolate 1(G MDR X4) ; value: 0.39 µM
Nc1nc(=O)n([C@H]2O[C@@H](CO)C[C@H]2F)cc1I ; cells: PBM ; value: >100 µM
Cc1cn([C@H]2C[C@H](N=[N+]=[N-])[C@@H](CO)O2)c(=O)[nH]c1=O ; cells: PBMC ; strain: LAI ; value: >100 µM
O=C1N(Cc2cccc(-c3ncn[nH]3)c2)[C@H](Cc2ccccc2)[C@H](O)[C@@H](O)[C@@H](Cc2ccccc2)N1Cc1cccc(-c2ncn[nH]2)c1 ; cells: MT-2 ; strain: RF ; value: <0.128 µM
CCc1c(O)cccc1C(=O)N[C@@H](Cc1ccccc1)[C@H](O)C(=O)N1C[C@@H](Cl)C[C@H]1C(=O)NC(C)(C)C ; cells: CEM ; strain: IIIB ; value: <0.12 µM
O=c1ccn(Cc2ccccc2)c(=O)n1Cc1ccccc1 ; cells: PBMC ; strain: IIIB ; value: 11.1 µM
O=C(Nc1nc2ccccc2[nH]1)c1cccc(CN2C(=O)N(Cc3cccc(C(=O)Nc4nc5ccccc5[nH]4)c3)[C@H](Cc3ccc(O)cc3)[C@H](O)[C@@H](O)[C@H]2Cc2ccc(O)cc2)c1 ; conditions: 3 d ; cells: MT-2 ; strain: RF ; value: <0.035 µM
Nc1cccc(CN2C(=O)N(Cc3cccc(N)c3)[C@H](Cc3ccccc3)[C@H](O)[C@@H](O)[C@H]2Cc2ccccc2)c1 ; cells: MT-2 ; strain: RF ; value: <0.13 µM
O=C(Nc1cc(S(=O)(=O)O)cc2cc(S(=O)(=O)O)c(N=Nc3ccc(N=Nc4c(S(=O)(=O)O)cc5cc(S(=O)(=O)O)cc(NC(=O)c6cccc(Cl)c6Cl)c5c4O)cc3)c(O)c12)c1ccc(Cl)cc1Cl ; cells: PBMC ; strain: BaL ; value: 0.03–0.12 µg/mL
Nc1ccn([C@@H]2CO[C@H](CO)O2)c(=O)n1 ; cells: PBMC ; value: 0.002 µM
Cc1ccc(O)c(C)c1C(=O)N[C@@H](Cc1ccccc1)[C@H](O)C(=O)N1C[C@@H](Cl)C[C@H]1C(=O)NC(C)(C)C ; cells: CEM ; strain: IIIB ; value: <0.105 µM
Nc1ncnc2c1ncn2[C@@H]1O[C@@H]2[C@H](O)CO[C@]2(CO)[C@H]1O ; cells: MT-4 ; value: >100 µM
Nc1ccc(C[C@@H]2[C@H](O)[C@@H](O)[C@@H](Cc3ccc(N)cc3)N(Cc3cccc(C(=O)Nc4nc5ccccc5[nH]4)c3)C(=O)N2Cc2cccc(C(=O)Nc3nc4ccccc4[nH]3)c2)cc1 ; conditions: 3 d ; cells: MT-2 ; strain: RF ; value: <0.01 µM
CC(=O)Oc1ccc(/C=C/C(=O)O[C@H](C(=O)O)[C@H](OC(=O)/C=C/c2ccc(OC(C)=O)c(OC(C)=O)c2)C(=O)O)cc1OC(C)=O ; changes: AMD3100-resistant ; cells: MT-4 ; strain: NL4-3 ; value: >93 µM
CCCC(=O)O[C@H]1CN2CC[C@H](O)[C@@H]2[C@@H](O)[C@@H]1O ; cells: H9 ; strain: U455 ; value: <4 µM
Cc1cn([C@H]2C=C[C@@H](CO)O2)c(=O)[nH]c1=O ; changes: RT-D67N K70R T215Y ; cells: MT-2 ; strain: HXB2D (RT D67N K70R T215Y) ; value: 0.0118 µM
COC(=O)c1cc(Nc2cc(C)[n+](C)c(N)n2)cc(C(=O)OC)c1 ; strain: ADA ; value: >1 µM
Cc1cc(C)cc(Cn2ccc(=O)n(Cc3cc(C)cc(C)c3)c2=O)c1 ; cells: PBMC ; strain: IIIB ; value: 0.52 µM
Nc1nncc2c([C@H]3CC[C@@H](CCP(=O)(O)O)C3(F)F)c[nH]c12 ; cells: PBMC ; strain: LAI ; value: 17.8 µM
Nc1nc(=O)n([C@H]2O[C@@H](CO)C[C@H]2F)cc1Br ; cells: PBM ; value: >100 µM
CC(C)C[C@@H]1[C@H](O)[C@@H](O)[C@@H](Cc2ccccc2)N(Cc2cccc(C(=O)Nc3nc4ccccc4[nH]3)c2)C(=O)N1Cc1cccc(C(=O)Nc2nc3ccccc3[nH]2)c1 ; changes: PR-I84V V82F ; conditions: 3 d ; cells: MT-2 ; strain: RF ; value: <0.082 µM
CC(C)c1nc(CN(C)C(=O)N[C@H](C(=O)N[C@@H](Cc2ccccc2)C[C@H](O)[C@H](Cc2ccccc2)NC(=O)OCc2cncs2)C(C)C)cs1 ; cells: MT-4 ; strain: IIIB ; value: 1.34 µg/mL
Nc1nc(=O)n([C@H]2C=C[C@@H](CO)O2)cc1F ; cells: PBMC ; value: <0.07 µM
C=CCN(C(=O)OCc1ccc(S(=C)(C)=O)cc1)C1CCN([C@H]2CN(C(=O)C3CCCC3)C[C@]2(O)c2ccccc2)CC1 ; cells: PBMC ; value: <0.005 µM
CC(C)=CCN1Cc2cc(Cl)cc3[nH]c(=S)n(c23)C[C@@H]1C ; changes: RT-M41L T215Y ; cells: MT-4 ; value: <0.4 µM
CCCC(=O)c1cccc(CN2C(=O)N(Cc3cccc(C(=O)CCC)c3)[C@H](Cc3ccccc3)[C@H](O)[C@@H](O)[C@H]2Cc2ccccc2)c1 ; cells: MT-2 ; strain: RF ; value: <1.439 µM
O=[N+]([O-])c1ccccc1S(=O)(=O)c1ccccc1 ; cells: CEM + CEM-SS ; strain: TP1 ; value: 8.78 µM
O=c1[nH]c(=O)n(C2OC(CO)CC2F)cc1I ; cells: PBM ; value: >100 µM
Cc1cc(SC2=C(O)C[C@@](CCc3ccc(N)cc3)(C(C)C)OC2=O)c(C(C)(C)C)cc1CO ; cells: CEM ; value: 0.2 µM
Cc1cn([C@H]2C[C@H](N=[N+]=[N-])[C@@H](CO)O2)c(=O)[nH]c1=O ; strain: IIIB ; value: 0.0016 µg/mL
Cc1cn([C@H]2C[C@H](N=[N+]=[N-])[C@@H](CO)O2)c(=O)[nH]c1=O ; changes: RT-M41L T215Y ; strain: H257-6 (RT M41L T215Y) ; value: 2.8 µM
CC1CNC(=O)c2ccccc2SSc2ccccc2C(=O)N1 ; cells: MT-4 ; strain: IIIB ; value: ~1.8 µg/mL
C[C@H](Cn1cnc2c(N)nc(N)nc21)OCP(=O)(O)O ; cells: MT-2 ; strain: IIIB ; value: 2 µM
CC(C)=CCN1Cc2ncnc3[nH]c(=O)n(c23)CC1C ; cells: MT-4 ; strain: IIIB ; value: 2 µM
O=c1[nH]cnc2c1ncn2[C@H]1CC[C@@H](CO)O1 ; cells: MT-2 ; strain: LAI ; value: 4.3 µM
Nc1ncnc2c1ncn2CCOCP(O)(O)=S ; cells: CEM ; strain: IIIB ; value: 5.5 µM
C=C(C)[C@@H]1CC[C@]2(C(=O)O)CC[C@]3(C)[C@H](CC[C@@H]4[C@@]5(C)CC[C@H](O)C(C)(C)[C@@H]5CC[C@]43C)[C@@H]12 ; value: >20 µM
Cc1cn([C@H]2C[C@H](N=[N+]=[N-])[C@@H](CO)O2)c(=O)[nH]c1=O ; cells: CEM + CEM-SS ; value: 0.003 µM
Cc1cn([C@H]2C=C[C@@H](COP(=O)(O)OP(=O)(O)OP(=O)(O)O)O2)c(=O)[nH]c1=O ; value: 0.33 µM
N#CCn1ccc(=O)n(Cc2c(F)cccc2F)c1=O ; cells: PBMC ; strain: IIIB ; value: 364 µM
Nc1ncnc2c1ncn2CCOCP(=O)(O)O ; value: 8.2 µM
O=c1[nH]c(=O)n([C@H]2CC[C@@H](CO)O2)cc1/C=C/c1ccccc1 ; cells: MOLT-4 ; value: 10 µg/mL
CCCCCC[C@@H]1[C@H](O)[C@@H](O)[C@@H](Cc2ccccc2)N(Cc2cccc(C(=O)Nc3nc4ccccc4[nH]3)c2)C(=O)N1Cc1cccc(C(=O)Nc2nc3ccccc3[nH]2)c1 ; changes: PR-I84V V82F ; conditions: 3 d ; cells: MT-2 ; strain: RF ; value: <0.024 µM
Nc1ncnc2c1ncn2C[C@@H](CO)OCP(=O)(O)O ; cells: PBL ; strain: IIIB ; value: >20 µM
O=C1N(Cc2cccc(C(=O)C(F)(F)F)c2)[C@H](Cc2ccccc2)[C@H](O)[C@@H](O)[C@@H](Cc2ccccc2)N1Cc1cccc(C(=O)C(F)(F)F)c1 ; cells: MT-2 ; strain: RF ; value: <33 µM
O=c1[nH]c(=O)n([C@H]2O[C@@H](CO)C[C@H]2F)cc1I ; cells: PBM ; value: >100 µM
Nc1ccn([C@@H]2CC(CO)(CO)CO2)c(=O)n1 ; cells: MT-4 ; value: >100 µg/mL
NC(N)=NCCC[C@H](N)C(=O)NC[C@H]1O[C@H](O[C@H]2C(O)[C@@H](O[C@H]3O[C@H](CO)[C@@H](O)[C@H](NC(=O)[C@@H](N)CCCN=C(N)N)[C@H]3O)[C@H](NC(=O)[C@@H](N)CCCN=C(N)N)C[C@@H]2NC(=O)[C@@H](N)CCCN=C(N)N)[C@H](O)[C@@H](O)[C@@H]1O ; cells: MT-4 ; strain: NL4-3 ; value: 30 µM
O=C1N(Cc2cccc(-c3ccn[nH]3)c2)[C@H](Cc2ccccc2)[C@H](O)[C@@H](O)[C@@H](Cc2ccccc2)N1Cc1cccc(-c2ccn[nH]2)c1 ; cells: MT-2 ; strain: RF ; value: <0.02 µM
Cc1cc(C)cc(Cn2c(=O)c(C)cn(Cc3ccccc3)c2=O)c1 ; cells: PBMC ; strain: IIIB ; value: 1.44 µM
CC(C)(C)NC(=O)[C@@H]1C[C@H](Cl)CN1C(=O)[C@@H](O)[C@H](Cc1ccccc1)NC(=O)OC1CCOC1 ; cells: CEM ; strain: IIIB ; value: <4.8 µM
Nc1nc2c(ncn2[C@H]2CO[C@@H](CO)O2)c(=O)[nH]1 ; changes: RT-D67N K70R T215Y ; cells: MT-2 ; strain: HXB2D (RT D67N K70R T215Y) ; value: 0.0027 µM
O=c1[nH]c(=O)n([C@H]2O[C@@H](CO)C[C@H]2F)cc1F ; cells: PBM ; value: >100 µM
Nc1nncc2c([C@H]3CC[C@@H](/C=C/P(=O)(O)O)C3(F)F)c[nH]c12 ; cells: PBMC ; strain: LAI ; value: 34.3 µM
Nc1nc(N)c2ncn(CCOCP(=O)(O)O)c2n1 ; cells: PBL ; strain: IIIB ; value: 0.94 µM
Cc1cn([C@H]2C[C@H](N=[N+]=[N-])[C@@H](CO)O2)c(=O)nc1N ; cells: PBMC ; value: 0.15 µM
O=c1ccn(Cc2ccccc2)c(=O)[nH]1 ; cells: PBMC ; strain: IIIB ; value: >351 µM
Nc1ccn([C@@H]2CO[C@H](CO)S2)c(=O)n1 ; cells: PBMC ; value: 0.21 µM
Nc1ncnc2c1ncn2[C@@H]1CC(CO)(CO)CO1 ; cells: MT-4 ; value: 20.1 µg/mL